A mixed list of measured activities; the numbers were collected in NIAID ChemDB.

Shared fields: whole-cell or culture tests; species: Herpes simplex virus 1; endpoint: EC50

Rows are shuffled and stem from different studies. Blank or dashed fields: not listed here. ECn is the concentration giving n% inhibition of infection, replication or growth.

| smiles | changes | cells | strain or isolate | method | value |
|---|---|---|---|---|---|
| Nc1ccn(C[C@@H](CO)OCP(=O)(O)O)c(=O)n1 | TK-deficient acyclovir-resistant | HEL | KOS | cytopathic effect | 0.9 µM |
| OC[C@H]1O[C@@H](c2cc(C(O)CBr)c(F)cc2F)C[C@@H]1O |  | E6SM | VMW 1837 | cytopathic effect | >3.2 µg/mL |
| OCCCCn1cc(Cn2ncc3c(NCc4ccccc4)ncnc32)nn1 |  | E6SM | KOS |  | >400 µg/mL |
| CC1(CO)CCC(Cn2ccc(=O)[nH]c2=O)C1(C)C |  | E6SM | TK-/B2006 | cytopathic effect | >400 µg/mL |
| COc1nc(=O)n([C@H]2C[C@H](O)[C@@H](CO)O2)cc1/C=C/Cl |  | PRK | McIntyre | cytopathic effect | 0.7 µg/mL |
| CO[C@H](CO)[C@@H](O)CCn1cc(C)c(=O)[nH]c1=O |  | E6SM | B2006 (TK-) | cytopathic effect | >400 µg/mL |
| O=[N+]([O-])c1ccc(-c2nc3c(Cl)c4ncccc4cc3[nH]2)cc1 |  | VERO 76 | KOS | plaque count | 44 µM |
| OCCOCn1c(-c2ccccc2)c(Br)c(-c2ccccc2)c1-c1ccccc1 |  | VERO |  | plaque count | >15 µM |
| CSc1ncnc2c1cnn2Cc1cn(CCCCO)nn1 |  | E6SM | B2006 (TK-) |  | >400 µg/mL |
| Cc1cn(CC[C@H](O)CCO)c(=O)[nH]c1=O |  | E6SM | McIntyre | cytopathic effect | >400 µg/mL |
| O=C(CCl)NCc1cn([C@H]2C[C@H](O)[C@@H](CO)O2)c(=O)[nH]c1=O |  | HSF | KOS | cytopathic effect | 150 µg/mL |
| CCCCCCCCCCCCOCCCOP1(=O)CO[C@@H](Cn2ccc(N)nc2=O)CO1 |  | HFF | E-377 | plaque count | >1 µM |
| Nn1c(-c2cn(-c3ccccc3)nc2-c2ccccc2)n[nH]c1=S |  | HEL | KOS (TK-) | cytopathic effect | >80 µg/mL |
| CC(C)NS(=O)(=O)c1ccccc1C(=O)N/N=C/c1ccc(F)cc1 |  | HEL | KOS | cytopathic effect | >100 µM |
| CC1(CO)CCC(Cn2nnc3c(N)ncnc32)C1(C)C |  | E6SM | KOS | cytopathic effect | >100 µg/mL |
| CCCCCCCCCCCCCCCCCCOCCCOP1(=O)CO[C@@H](Cn2ccc(N)nc2=O)CO1 |  | HFF | HL-3 | plaque count | >1 µM |
| Cc1ccc(C)c(NC(=O)CN2C(=O)c3ccccc3S2(=O)=O)c1 | TK-deficient acyclovir-resistant | HEL | KOS | cytopathic effect | >100 µM |
| O=c1[nH]c(=O)n([C@H]2C[C@H](O)[C@@H](CO)O2)cc1I |  | PRK | VEX538 | cytopathic effect | 0.1 µg/mL |
| N#CC1=CSc2nnc(-c3cn(-c4ccccc4)nc3-c3ccccc3)n2N=C1N |  | HEL | KOS (TK-) | cytopathic effect | >80 µg/mL |
| Nc1ncnc2c1ncn2[C@@H]1O[C@H](CO)[C@@H](O)[C@H]1OP(=O)(O)OC[C@H]1O[C@@H](n2cnc3c(N)ncnc32)[C@H](OP(=O)(O)OC[C@H]2O[C@@H](n3cc(/C=C/Br)c(=O)[nH]c3=O)C[C@@H]2O)[C@@H]1O |  | PRK | VMW1837 (TK-) | cytopathic effect | >100 µg/mL |
| COc1ccc(/C=N/NC(=O)c2ccccc2S(=O)(=O)NC(C)C)cc1 | TK-deficient acyclovir-resistant | HEL | KOS | cytopathic effect | >100 µM |
| O=C1CSc2nnc(-c3cn(-c4ccccc4)nc3-c3ccccc3)n2N1 |  | HEL | KOS (TK-) | cytopathic effect | >16 µg/mL |
| Nc1nc2c(ncn2COCCO)c(=O)[nH]1 |  | HEL | KOS | cytopathic effect | 0.4 µM |
| O=Cc1cn([C@H]2C[C@H](O)[C@@H](CO)O2)c(=O)[nH]c1=O |  | PRK | B2006 (TK-) | cytopathic effect | 2 µg/mL |
| OCCOCn1c(-c2ccccc2)c(Br)c(Br)c1-c1ccccc1 |  | VERO |  | plaque count | >51 µM |
| Nc1nc2c(ncn2[C@H]2C=C[C@@H](CO)[C@H](O)C2)c(=O)[nH]1 |  | E6SM | KOS TK- acyclovir-resistant | cytopathic effect | 1.28 µg/mL |
| CCCCCCCC/C=C\CCCCCCCOCCOP1(=O)CO[C@@H](Cn2ccc(N)nc2=O)CO1 |  | HFF | F | plaque count | 0.03 µM |
| C=Cc1cn(OC(CO)CO)c(=O)[nH]c1=O |  | VERO | KOSSB (TK-) | plaque count | >50 µg/mL |
| OCCCCn1cc(Cn2ncc3c(SCc4ccccc4)ncnc32)nn1 |  | E6SM | VWM1837 |  | >400 µg/mL |
| O=c1[nH]c(=O)n([C@@H]2O[C@H](CO)[C@@H](O)[C@@H]2O)cc1/C=C/Br |  | PRK | B2006 (TK-) | cytopathic effect | >200 µg/mL |
| OCCCCn1nncc1Cn1ncc2c(SCc3ccccc3)ncnc21 |  | E6SM | VWM1837 |  | >400 µg/mL |
| Nc1ccn(C[C@@H](CO)OCP(=O)(O)O)c(=O)n1 |  | HFF | E-377 | plaque count | 5.5 µM |
| CCOC(=O)c1c(Br)c(-c2ccccc2)n(COCCOC(C)=O)c1-c1ccccc1 |  | VERO |  | plaque count | >47 µM |
| CSCc1cn([C@H]2C[C@H](O)[C@@H](CO)O2)c(=O)[nH]c1=O |  | PRK | B2006 (TK-) | cytopathic effect | >200 µg/mL |
| c1ccc(-c2nn3c(-c4cn(-c5ccccc5)nc4-c4ccccc4)nnc3s2)cc1 |  | HEL | KOS | cytopathic effect | >3.2 µg/mL |
| OC[C@H]1O[C@@H](c2cc(C(O)CI)c(F)cc2F)C[C@@H]1O |  | E6SM | KOS (TK-) | cytopathic effect | >16 µg/mL |
| NC1=CC(c2ccccc2)=Nn2c(nnc2-c2cn(-c3ccccc3)nc2-c2ccccc2)S1 |  | HEL | KOS (TK-) | cytopathic effect | >80 µg/mL |
| Nc1nc(=O)n([C@H]2C[C@H](O)[C@@H](CO)O2)cc1/C=C/Cl |  | PRK | F | cytopathic effect | 0.07 µg/mL |
| O=c1[nH]c(=O)n([C@H]2C[C@H](O)[C@@H](CO)O2)cc1/C=C/Br |  | E6SM | VMW1837 (TK-/TK+) | cytopathic effect | >80 µg/mL |
| C=C(C)C(O)Cc1c(O)c(C(C)=O)c(O)c(C(=O)CC(C)C)c1O |  | VERO |  | cytopathic effect | 0.3 µM |
| CCCCCCCCCCCCCCCCCCOC[C@H](COP(=O)(O)CO[C@H](CO)Cn1ccc(N)nc1=O)OCc1ccccc1 |  | HFF | HL-3 | plaque count | 0.04 µM |
| Nc1ccn(CC[C@H](O)CCO)c(=O)n1 |  | E6SM | McIntyre | cytopathic effect | >400 µg/mL |
| CC1(CO)CCC(Cn2cnc3c(=O)[nH]cnc32)C1(C)C |  | E6SM | TK-/B2006 | cytopathic effect | >200 µg/mL |
| Nc1nc2c(ncn2COCCOP(=O)(O)O[C@@H]2[C@H](O)[C@@H](COP(=O)(O)O[C@@H]3[C@H](O)[C@@H](CO)O[C@H]3n3cnc4c(N)ncnc43)O[C@H]2n2cnc3c(N)ncnc32)c(=O)[nH]1 |  | PRK | KOS | cytopathic effect | 0.7 µg/mL |
| Nc1nc2c(ncn2COC(CO)CO)c(=O)[nH]1 |  | VERO H | 7294 (DRUG-resistant) | plaque count | 51.77 µM |
| CCOC(=O)CSc1nnc(-c2cn(-c3ccccc3)nc2-c2ccccc2)n1N |  | HEL | KOS | cytopathic effect | >80 µg/mL |
| CO[C@H](CO)[C@@H](O)CCn1cnc2c(=O)[nH]c(N)nc21 |  | E6SM | McIntyre | cytopathic effect | >400 µg/mL |
| CCCCCCCCCCCCCCCCOP1(=O)CO[C@@H](Cn2ccc(N)nc2=O)CO1 |  | HFF | E-377 | plaque count | >1 µM |
| c1ccc(C2=Nn3c(nnc3-c3cn(-c4ccccc4)nc3-c3ccccc3)SC2)cc1 |  | HEL | KOS | cytopathic effect | >3.2 µg/mL |
| CCOC(=O)c1c([N+](=O)[O-])c(-c2ccccc2)n(COCCOC(C)=O)c1-c1ccccc1 |  | VERO |  | plaque count | >96 µM |

For reference, 5 entries again:

smiles	changes	cells	strain or isolate	method	value
Nc1ncnc2c1ncn2[C@@H]1O[C@H](CO)[C@@H](O)[C@H]1OP(=O)(O)OC[C@H]1O[C@@H](n2cnc3c(N)ncnc32)[C@H](OP(=O)(O)OC[C@H]2O[C@@H](n3cc(/C=C/Br)c(=O)[nH]c3=O)C[C@@H]2O)[C@@H]1O		PRK	VMW1837 (TK-)	cytopathic effect	>100 µg/mL
OCCOCn1c(-c2ccccc2)c(Br)c(-c2ccccc2)c1-c1ccccc1		VERO		plaque count	>15 µM
COc1nc(=O)n([C@H]2C[C@H](O)[C@@H](CO)O2)cc1/C=C/Cl		PRK	McIntyre	cytopathic effect	0.7 µg/mL
Nc1ccn(CC[C@H](O)CCO)c(=O)n1		E6SM	McIntyre	cytopathic effect	>400 µg/mL
c1ccc(-c2nn3c(-c4cn(-c5ccccc5)nc4-c4ccccc4)nnc3s2)cc1		HEL	KOS	cytopathic effect	>3.2 µg/mL